Source: patent US7405063B2, “Biooxidation capabilities of Candida sp” (Cognis Corporation, priority 2000, dated 2008)
The amount applied is not stated for every result.

Tested on: C. tropicalis
Assay: Bioconversion testing of additional substrates (Phase II), shake flask, NMR and GC/MS
Format: cell-based
Details: for Reaction or Major Reaction Product: Phase II screening summary

Row | Structure (SMILES) | Reaction or Major Reaction Product | biooxidation outcome / predominant product (NMR, GC/MS) | vinyl unsaturation oxidized to diol, by NMR (24-30 hours biooxidation) [%]
1 | CCCCCCCCCCCCC1CO1 (stereo not drawn) [1,2-Epoxytetradecane] | (ω,ω-1) Dihydroxy Fatty Acid |  | 
2 | CCCCCCCCCCCCCCC(O)CO (stereo not drawn) [1,2-Hexadecanediol] | (ω,ω-1) Dihydroxy Fatty Acid |  | 
3 | CCc1ccc(CC)cc1 [1,4-diethyl benzene, 1,4-diethylbenzene] |  | 4-ethylphenylacetic acid | 
4 | C=CCCCCCCCCCCCCCC [1-Hexadecene] | (ω,ω-1) Dihydroxy Fatty Acid |  | 50
5 | C=CCCCCCCCCCCCCCCCC [1-Octadecene] | (ω,ω-1) Dihydroxy Fatty Acid |  | 
